Source: patent publication US11439622B2 (OXFORD UNIVERSITY INNOVATION LIMITED, priority 2015, dated 2022)

Chains of the proteins cited; added tags and fusions are not shown. Residues count along the entry.
UniProt P52699, 19-246 limits assumed: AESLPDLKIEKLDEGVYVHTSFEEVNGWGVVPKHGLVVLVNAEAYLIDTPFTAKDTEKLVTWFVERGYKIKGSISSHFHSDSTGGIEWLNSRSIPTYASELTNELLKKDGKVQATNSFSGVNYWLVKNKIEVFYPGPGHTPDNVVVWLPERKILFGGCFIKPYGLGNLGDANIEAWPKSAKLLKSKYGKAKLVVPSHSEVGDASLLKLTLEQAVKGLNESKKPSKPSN
UniProt C7C422, 29-270 limits assumed: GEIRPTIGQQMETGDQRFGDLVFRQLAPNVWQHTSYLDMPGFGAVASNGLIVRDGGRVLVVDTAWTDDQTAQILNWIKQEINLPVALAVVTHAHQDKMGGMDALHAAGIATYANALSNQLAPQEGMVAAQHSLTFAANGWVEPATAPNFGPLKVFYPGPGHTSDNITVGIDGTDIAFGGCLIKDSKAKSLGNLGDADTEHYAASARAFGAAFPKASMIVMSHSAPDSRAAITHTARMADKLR

Assays:
Assay type in all cases: biochemical
[1] = biological target: VIM-2 (Veronese metallo-β-lactamase-2) (Escherichia coli, UniProt Q5U7L7); test: Enzyme inhibition assay, VIM-2
Description: (§1) The biological activity of the compounds of the present invention was tested using standard assay protocols.^7 The following representative enzymes NDM-1 (New Delhi metallo-β-lactamase-1), IMP-1 (Imipenemase-1) and VIM-2 (Veronese metallo-β-lactamase-2) were selected from different clinically relevant B1 metallo-β-lactamases.

IMP-1 (Imipenemase-1) = IMP-1 (Imipenemase-1) (Serratia marcescens, UniProt P52699); test: Enzyme inhibition assay, IMP-1
Description: as §1

[2] = biological target: NDM-1 (New Delhi metallo-β-lactamase-1) (Klebsiella pneumoniae, UniProt C7C422); test: Enzyme inhibition assay, NDM-1
Description: as §1

Cc1cccc2c(-c3cccc(Cl)c3)c(C(=O)O)[nH]c12
pIC50 VIM-2 [1]: 7
pIC50 IMP-1 (IMP-1 (Imipenemase-1)): 5.7
pIC50 NDM-1 [2]: 7.6

Structures were worked out from names or drawings and are uncertain.
